A mixed list of measured activities; the numbers were collected in NIAID ChemDB.

Shared fields: growth or infection tests; species: Aspergillus flavus; measure: MIC50

Conditions beyond the fields shown may differ between rows. MIC50, MIC90 and the like: level of inhibition, or share of isolates inhibited. a–b is a range or a potency band. Blank or dashed fields: not listed here.

SMILES,method,result
CC(=O)c1ccccc1O,agar,142 µg/mL
C[C@H]1[C@H](O)[C@@H](C)/C=C/C=C/C=C/C=C/C=C/C=C/C=C/[C@H](O[C@@H]2O[C@H](C)[C@@H](O)[C@H](N)[C@@H]2O)C[C@@H]2O[C@](O)(C[C@@H](O)C[C@@H](O)CC[C@H](O)[C@@H](O)C[C@@H](O)CC(=O)O[C@H]1C)C[C@H](O)[C@H]2C(=O)O,turbidity,3.1 µg/mL
O=C(O)c1ccccc1O,agar,369 µg/mL
CCC(C)CC(C)CCCCCCCCC(=O)N[C@H]1C[C@@H](O)[C@H](NCCN)NC(=O)[C@@H]2[C@@H](O)CCN2C(=O)[C@H]([C@H](O)CCN)NC(=O)[C@H]([C@H](O)[C@@H](O)c2ccc(O)cc2)NC(=O)[C@@H]2C[C@@H](O)CN2C(=O)[C@H]([C@@H](C)O)NC1=O,-,0.03–0.25 µg/mL
Cc1ccc(C(C)C)cc1O,agar,57 µg/mL
CNC(=S)N/N=C(\C)c1ccc(-n2ccnc2)cc1,broth dilution,>915 µM
C=CCc1ccc(O)c(OC)c1,agar,98 µg/mL
S=C(N/N=C/c1cnc[nH]1)Nc1ccccc1,broth dilution,>1020 µM
CC[C@@H]([C@H](C)O)n1ncn(-c2ccc(N3CCN(c4ccc(OC[C@@H]5CO[C@@](Cn6cncn6)(c6ccc(F)cc6F)C5)cc4)CC3)cc2)c1=O,-,>32 µg/mL
NC(=S)N/N=C/c1cnc[nH]1,broth dilution,>1480 µM
COc1cc(C)ccc1O,agar,267 µg/mL
C[C@@H](c1nc(-c2ccc(C#N)cc2)cs1)[C@](O)(Cn1cncn1)c1cc(F)ccc1F,-,0.5–2 µg/mL
CC(=O)N/N=C(\C)c1ccc(-n2ccnc2)cc1,broth dilution,>1030 µM
CCCCCOc1ccc(-c2cc(-c3ccc(C(=O)N[C@H]4C[C@@H](O)[C@@H](O)NC(=O)[C@@H]5[C@@H](O)[C@@H](C)CN5C(=O)[C@H]([C@H](O)CC(N)=O)NC(=O)[C@H]([C@H](O)[C@@H](O)c5ccc(O)c(OS(=O)(=O)O)c5)NC(=O)[C@@H]5C[C@@H](O)CN5C(=O)[C@H]([C@@H](C)O)NC4=O)cc3)no2)cc1,-,0.015 µg/mL
C/C(=N\NC(=O)c1ccc([N+](=O)[O-])cc1)c1ccc(-n2ccnc2)cc1,broth dilution,>715.6 µM
COc1ccccc1O,agar,731 µg/mL
CC(=O)N/N=C/c1ccc(-n2ccnc2)cc1,broth dilution,>1100 µM
CC(O)CCCNc1cnc2ccccc2c1,turbidity,31.3 µg/mL
C[C@@H](c1ncncc1F)[C@](O)(Cn1cncn1)c1ccc(F)cc1F,-,0.5–1 µg/mL

2 of the rows above, restated:

SMILES,method,result
CC[C@@H]([C@H](C)O)n1ncn(-c2ccc(N3CCN(c4ccc(OC[C@@H]5CO[C@@](Cn6cncn6)(c6ccc(F)cc6F)C5)cc4)CC3)cc2)c1=O,-,>32 µg/mL
NC(=S)N/N=C/c1cnc[nH]1,broth dilution,>1480 µM